Assay results from publication PMC3534098 (PLoS ONE, 2012).

Chains of the proteins cited; added tags and fusions are not shown.
UniProt P63886, whole entry, looked up: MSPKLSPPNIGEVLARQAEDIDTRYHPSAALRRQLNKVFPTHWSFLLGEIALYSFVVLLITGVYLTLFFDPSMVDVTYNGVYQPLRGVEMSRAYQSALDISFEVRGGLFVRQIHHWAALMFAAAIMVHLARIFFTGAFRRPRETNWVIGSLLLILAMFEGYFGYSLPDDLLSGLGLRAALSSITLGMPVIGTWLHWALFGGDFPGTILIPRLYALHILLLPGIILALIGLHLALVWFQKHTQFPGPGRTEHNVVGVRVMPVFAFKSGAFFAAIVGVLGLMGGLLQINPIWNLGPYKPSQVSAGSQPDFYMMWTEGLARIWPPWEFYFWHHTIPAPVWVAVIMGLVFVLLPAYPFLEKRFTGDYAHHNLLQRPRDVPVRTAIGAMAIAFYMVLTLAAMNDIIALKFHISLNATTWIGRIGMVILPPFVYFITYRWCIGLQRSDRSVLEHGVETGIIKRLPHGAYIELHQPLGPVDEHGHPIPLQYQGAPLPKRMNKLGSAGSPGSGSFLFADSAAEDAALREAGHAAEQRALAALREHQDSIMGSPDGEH
UniProt P9WH23, whole entry, looked up: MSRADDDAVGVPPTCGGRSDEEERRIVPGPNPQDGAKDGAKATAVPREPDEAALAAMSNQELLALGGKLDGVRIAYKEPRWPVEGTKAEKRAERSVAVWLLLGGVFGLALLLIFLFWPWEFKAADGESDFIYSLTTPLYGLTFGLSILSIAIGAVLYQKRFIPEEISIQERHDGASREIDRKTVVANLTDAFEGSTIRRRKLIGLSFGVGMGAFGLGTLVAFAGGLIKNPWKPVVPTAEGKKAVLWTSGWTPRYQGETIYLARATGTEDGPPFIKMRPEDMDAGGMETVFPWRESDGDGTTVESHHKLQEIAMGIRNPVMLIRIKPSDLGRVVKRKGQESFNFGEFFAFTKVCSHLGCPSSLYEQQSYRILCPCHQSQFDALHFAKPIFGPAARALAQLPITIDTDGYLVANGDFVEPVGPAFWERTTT

Molecular target: M. bovis BCG QcrB (UniProt P63886+P9WH23)
Experiment: MIC in M. bovis BCG over-expressing QcrB (pMV261 constructs)

Cc1ccc2nc(C)c(C(=O)NCc3ccc(C(F)(F)F)cc3)n2c1 [IP 3, 2,6-Dimethyl-N-(4-(trifluoromethyl)benzyl)imidazo[1,2-a]pyridine-3-carboxamide]
MIC with QcrB over-expression (M. bovis BCG containing pMV261::qcrB, pMV261::qcrCAB or pMV261::ctaE-qcrCAB): > 8 µM | growth of QcrB over-expressing transformants (at 16× MIC, all three inserts including pMV261::qcrB): ample growth
